The series has as its system BoCell™ model cell line. The class given is cell-based. To be noted: 24 hours of BoNT/A treatment with H7 equivalent to 72 hour BoNT/A treatments under current assay conditions.

SMILES strings stand for the structures.

As to `CC1CNCCN1S(=O)(=O)c1cccc2cnccc12.Cl.Cl` (stereo not shown) [H7, 1-(5-isoquinolinylsulfonyl)-2-methylpiperazine dichloride], the assay time reduction is 48 h.

These data come from patent publication EP2800973B1 (priority 2012, dated 2013).
